Values from PubChem BioAssay AID1259414 (Drosophila RNAi Screening Center, 2018)

- Purpose: 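Genome-wide screen for host control of endosymbiont load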 (primary screen)
- Cell system: Drosophila JW18 cells infected with Wolbachia
- Knock-down reagent: long dsRNA against Drosophila genes, 0.25 µg dsRNA per well of a 384-well plate
- Time to read-out: 5 days
- Treatment: cells persistently infected with Wolbachia before knock-down; no added drug
- Read-out: 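Automated imaging of bacterial rRNA staining divided by host cell count, reported as plate-normalised robust z-score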
- Scale: Wolbachia per cell robust z: higher = more Wolbachia per host cell than the plate typical
- Rule for the call: 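Active if absolute robust z reaches 1.5 in two or more of three replicates, leaving out multi- or no-target dsRNAs, genes unexpressed in JW18 and A1 wells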
In all, the deposit lists about 24,000 reagents; below is an unselected part of those that have a named target and a result. Over the whole deposit, about 1,210 (5%) got an active call. 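Inactive calls also include excluded dsRNAs with several or no targets, genes unexpressed in JW18, and well A1, regardless of score.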 A number with no mark means an inactive call. Names joined by + are all predicted targets of the reagent.

After knock-down of CG44013 + CG44014 [DRSC28897] the results were Wolbachia per cell robust z, rep 1 = -0.133; Wolbachia per cell robust z, rep 2 = -1.64; Wolbachia per cell robust z, rep 3 = -0.746. Against CG3149 [DRSC17732] the deposit lists Wolbachia per cell robust z, rep 1 = -0.121; Wolbachia per cell robust z, rep 2 = -2.87; Wolbachia per cell robust z, rep 3 = -0.0271. Against CG3149 [DRSC27511], the entry reads Wolbachia per cell robust z, rep 1 = 0.0342; Wolbachia per cell robust z, rep 2 = 0.811; Wolbachia per cell robust z, rep 3 = 1.71. cni [DRSC03512] gave Wolbachia per cell robust z, rep 1 = 0.365; Wolbachia per cell robust z, rep 2 = -0.186; Wolbachia per cell robust z, rep 3 = -0.936. Against ppk17 [DRSC02252], the values are Wolbachia per cell robust z, rep 1 = -0.408; Wolbachia per cell robust z, rep 2 = -1.83; Wolbachia per cell robust z, rep 3 = -0.0252.

Single entries from above.
Under “Wolbachia per cell robust z, rep 1”, ppk17 [DRSC02252] is entered as -0.408
Under “Wolbachia per cell robust z, rep 2”, CG3149 [DRSC17732] is entered as -2.87

More results follow.
Depletion of Nlg2 [DRSC00957] resulted in: Wolbachia per cell robust z, rep 1 = 0.459; Wolbachia per cell robust z, rep 2 = 1.44; Wolbachia per cell robust z, rep 3 = -7.3. After knock-down of Nlg2 [DRSC03578], the screen gave Wolbachia per cell robust z, rep 1 = 0.707; Wolbachia per cell robust z, rep 2 = -1.4; Wolbachia per cell robust z, rep 3 = 1.37. With knock-down of Nlg2 [DRSC25217], the screen gave Wolbachia per cell robust z, rep 1 = -0.474; Wolbachia per cell robust z, rep 2 = 0.0332; Wolbachia per cell robust z, rep 3 = -0.24. After knock-down of Gr5a [DRSC18085], the screen gave Wolbachia per cell robust z, rep 1 = 0.321; Wolbachia per cell robust z, rep 2 = 0.731; Wolbachia per cell robust z, rep 3 = 0.368. Depletion of Gr5a [DRSC40667] came out at: Wolbachia per cell robust z, rep 1 = 0.83; Wolbachia per cell robust z, rep 2 = 0.212; Wolbachia per cell robust z, rep 3 = 0.99. Depletion of CG11975 [DRSC14452] came out at: Wolbachia per cell robust z, rep 1 = -0.127; Wolbachia per cell robust z, rep 2 = 0.546; Wolbachia per cell robust z, rep 3 = -1.72.

CtsL4 [DRSC02849] scored Wolbachia per cell robust z, rep 1 = 0.395; Wolbachia per cell robust z, rep 2 = 0.112; Wolbachia per cell robust z, rep 3 = 0.95. Depletion of CG7786 [DRSC07045] resulted in: Wolbachia per cell robust z, rep 1 = -3.78; Wolbachia per cell robust z, rep 2 = -1.93; Wolbachia per cell robust z, rep 3 = -3.15. CG7786 [DRSC26604] gave Wolbachia per cell robust z, rep 1 = 0.279; Wolbachia per cell robust z, rep 2 = -0.157; Wolbachia per cell robust z, rep 3 = 1.58. After knock-down of jeb [DRSC06305], the record shows Wolbachia per cell robust z, rep 1 = 1.2; Wolbachia per cell robust z, rep 2 = -0.0404; Wolbachia per cell robust z, rep 3 = 1.03. Knock-down of jeb [DRSC06307] came out at: Wolbachia per cell robust z, rep 1 = 0.704; Wolbachia per cell robust z, rep 2 = 0.467; Wolbachia per cell robust z, rep 3 = 1.05. With knock-down of jeb [DRSC26882] the results were Wolbachia per cell robust z, rep 1 = -0.116; Wolbachia per cell robust z, rep 2 = 0.0946; Wolbachia per cell robust z, rep 3 = -0.661.
